A mixed list of measured activities; the numbers were collected in NIAID ChemDB.

All rows: whole-cell or culture tests; agent: HIV-1

ECn is the concentration giving n% inhibition of infection, replication or growth. Rows are shuffled and stem from different studies. An empty or dashed field is not shown.

COc1ccnc2[nH]cc(C(=O)C(=O)N3CCN(C(=O)c4ccccc4)C[C@H]3C)c12 ; mutations: GP120/GP41-M434I I595F ; strain: LAI (gp120/gp41 M434I I595F) Recombinant ; method: RT activity ; read-out: EC50 ; cell line: MT-2 ; result: 1.99 µM
CC(C)CN(C[C@@H](O)CCN(CC1CCCC1)S(=O)(=O)c1ccc(O)cc1)S(=O)(=O)c1ccc(O)cc1 ; strain: IIIB ; method: p24 ; read-out: EC90 ; cell line: CEM ; result: 0.1 µM
C[C@@H]1CN(C(=O)c2ccccc2)CCN1C(=O)C(=O)c1ccc2cc(C(=O)O)ccc2c1 ; method: luciferase / reporter gene ; read-out: EC50 ; cell line: HeLa ; result: <1 µM
CC(C)CN(C[C@@H](O)[C@H](Cc1ccccc1)NC(=O)O[C@H]1CO[C@H]2OCC[C@H]21)S(=O)(=O)c1ccc2c(c1)OCO2 ; mutations: L10I/G48V/I54V/L63P/A71V/G73S/V82T ; strain: NL4-3 (SQV5) ; method: p24 ; read-out: EC50 ; cell line: MT-4 ; result: 0.006 µM
Cc1nnc(NC(=O)NCCc2ccccc2)s1 ; method: cytopathic effect / XTT ; read-out: EC50 ; cell line: MT-4 ; result: >100 µg/mL
CC(C)CN(CC(O)Cn1ccnc1C(=O)NC(C)(C)C)S(=O)(=O)c1ccccc1 ; strain: IIIB ; method: p24 ; read-out: EC90 ; cell line: CEM ; result: 1 µM
O=C(O)C(=O)/C=C(\O)c1cc(Cc2ccc(F)cc2F)cn(Cc2ccc(F)cc2)c1=O ; read-out: EC50 ; cell line: MAGI ; result: 0.6 µM
C=C(c1cc(OC)cc(OC)c1)c1c(C)c(=O)[nH]c(=O)n1COCc1ccccc1 ; mutations: F227L + V106A ; strain: IIIB ; method: MTT ; read-out: EC50 ; cell line: MT-4 ; result: 28.01 µM
O=C1[C@@H](Cc2ccccc2)NC(=S)N1Cc1ccccc1 ; method: cytopathic effect / XTT ; read-out: EC50 ; cell line: MT-4 ; result: <10 µg/mL
C[C@@H]1CN(C(=O)c2ccccc2)CCN1C(=O)C(=O)c1cc2ccccc2cn1 ; method: luciferase / reporter gene ; read-out: EC50 ; cell line: HeLa ; result: <1 µM
NNC(=O)Cc1nc2n(n1)CCCCC2 ; strain: IIIB ; method: cytopathic effect ; read-out: EC50 ; cell line: MT-4 ; result: >125 µg/mL
O=C1NC(=O)C(CS(=O)(=O)N(CC2CCCC2)C[C@@H](O)CN(CCc2ccccc2)C(=O)c2ccccc2)N1 ; strain: IIIB ; method: p24 ; read-out: EC50 ; cell line: CEM ; result: <1 µM
CN1C(C)(c2ccccc2)c2ccccc2S1(=O)=O ; method: p24 / RT activity ; read-out: EC50 ; result: 4.52 µM
O=C(NCCc1ccccc1)Nc1nc2ccc(Cl)cc2s1 ; method: RT activity ; read-out: EC50 ; cell line: MT-4 ; result: <1 µg/mL
CN1C(c2cccc(Cl)c2Cl)c2ccccc2S1(=O)=O ; method: p24 / RT activity ; read-out: EC50 ; result: 0.039 µM
Cc1ccccc1C(O)(c1c(C)c(=O)[nH]c(=O)n1COCc1ccccc1)C(C)C ; strain: IIIB ; method: MTT ; read-out: EC50 ; cell line: MT-4 ; result: >53.83 µM
COc1ccnc2[nH]cc(C(=O)C(=O)N3CCN(C(=O)c4ccccc4)C[C@H]3C)c12 ; strain: 6535 ; method: luciferase ; read-out: EC90 ; cell line: TZM-bl ; result: 0.005 µM
S=C(Nc1ccc(Cl)c(Cl)c1)NC1CCN(Cc2ccccc2)CC1 ; strain: IIIB ; method: MTT ; read-out: EC50 ; cell line: MT-4 ; result: >7.3 µM
C[C@H]1CN(C(=O)c2ccccc2)CCN1C(=O)C(=O)c1cc2ccccc2cn1 ; method: luciferase / reporter gene ; read-out: EC50 ; cell line: HeLa ; result: <1 µM
O=C(O)C(=O)/C=C(\O)c1cc(Cc2ccccc2)cn(Cc2ccccc2F)c1=O ; read-out: EC50 ; cell line: MAGI ; result: 0.9 µM
N=C1Sc2ccccc2C2=NCCCN12 ; strain: 93BR021 ; method: MTS ; read-out: EC50 ; cell line: PBMC ; result: 0.6 µM
O=C1Nc2ccc(Cl)cc2[C@@](C#CC2CC2)(C(F)(F)F)O1 ; strain: IIIB ; method: MTT ; read-out: EC50 ; cell line: MT-4 ; result: >46 µM
COc1ccnc2[nH]cc(C(=O)C(=O)N3C4CCC3CN(C(=O)c3ccccc3)C4)c12 ; strain: AC10 ; method: luciferase ; read-out: EC99 ; cell line: TZM-bl ; result: 33 µM
O=C(c1ccccc1)N(CCc1ccccc1)C[C@H](O)CN(CC1CCCC1)S(=O)(=O)Cc1ncc[nH]1 ; strain: IIIB ; method: p24 ; read-out: EC50 ; cell line: CEM ; result: <1 µM
CCn1nc(Cc2n[nH]c(=S)o2)nc1C ; strain: IIIB ; method: cytopathic effect ; read-out: EC50 ; cell line: MT-4 ; result: >58.3 µg/mL
S=C(NCc1ccco1)Nc1cccc(Br)c1 ; strain: IIIB ; method: MTT ; read-out: EC50 ; cell line: MT-4 ; result: >38.2 µM
O=C(NCCc1ccccc1)Nc1cncc(Cl)n1 ; method: cytopathic effect / XTT ; read-out: EC50 ; cell line: MT-4 ; result: <1 µg/mL
CC(=O)N1C2CCC(C2)N2C(=O)c3c(O)c(=O)c(C(=O)NCc4ccc(F)cc4F)cn3CC12 ; conditions: 0% human serum ; strain: NL4-3 ; method: GFP ; read-out: EC50 ; cell line: MT-4 ; result: 0.002 µM
Cc1cc(F)ccc1Cc1cc(/C(O)=C/C(=O)C(=O)O)c(=O)n(Cc2ccccc2F)c1 ; read-out: EC50 ; cell line: MAGI ; result: 1.3 µM
Fc1ccc(NC(=S)NC2CCN(Cc3ccccc3)CC2)cc1Cl ; strain: IIIB ; method: MTT ; read-out: EC50 ; cell line: MT-4 ; result: >15.7 µM
Cc1cc(C#N)cc(C)c1Oc1nc(Nc2ccc(C#N)cc2)nc(N)c1Br ; mutations: N348I ; strain: p8.9 ; method: luciferase ; read-out: EC50 ; cell line: HEK293T ; result: 2.75 nM
COc1ccc(-n2c(Cc3nc4n(n3)CCCC4)n[nH]c2=S)cc1 ; strain: IIIB ; method: cytopathic effect ; read-out: EC50 ; cell line: MT-4 ; result: >97.4 µg/mL
CC(=O)N1C(=O)[C@@H](c2ccccc2)NC1=S ; method: cytopathic effect / XTT ; read-out: EC50 ; cell line: MT-4 ; result: >10 µg/mL
Cc1nc(CC(=O)NN)nn1C ; strain: IIIB ; method: cytopathic effect ; read-out: EC50 ; cell line: MT-4 ; result: >102 µg/mL
CC1CN(C(=O)c2ccccc2)CCN1C(C#N)C(=O)c1ccc2ccccc2n1 ; method: luciferase / reporter gene ; read-out: EC50 ; cell line: HeLa ; result: <1 µM
CS(=O)c1ccc(-c2nc(-c3ccc(F)cc3)c(-c3ccncc3)[nH]2)cc1 ; strain: BaL ; method: p24 ; read-out: EC50 ; cell line: Jurkat cells ; result: >1 µM
CC(C)CN(CC(O)CN(CC(C)C)S(=O)(=O)c1ccccc1)S(=O)(=O)c1ccccc1 ; strain: IIIB ; method: p24 ; read-out: EC90 ; cell line: CEM ; result: 1 µM
CC1CN(C(=O)c2ccccc2)CCN1C(=O)C(=O)c1ccc2c(O)cccc2n1 ; method: luciferase / reporter gene ; read-out: EC50 ; cell line: HeLa ; result: <1 µM
Fc1ccccc1NC(=S)NC1CCN(Cc2ccccc2)CC1 ; strain: IIIB ; method: MTT ; read-out: EC50 ; cell line: MT-4 ; result: >95 µM
Cc1ccccc1C(C)c1c(C)c(=O)[nH]c(=O)n1COCc1ccccc1 ; mutations: F227L + V106A ; strain: IIIB ; method: MTT ; read-out: EC50 ; cell line: MT-4 ; result: >343 µM
O=C1NC(=S)N[C@@H]1c1ccc(-c2ccccc2)cc1 ; method: cytopathic effect / XTT ; read-out: EC50 ; cell line: MT-4 ; result: >10 µg/mL
FC(F)(F)c1cccc(NC(=S)NCc2ccco2)c1 ; strain: IIIB ; method: MTT ; read-out: EC50 ; cell line: MT-4 ; result: >44.7 µM
O=C(O)C(=O)/C=C(\O)c1cc(Cc2ccccc2)cn(Cc2ccc(F)c(Cl)c2)c1=O ; read-out: EC50 ; cell line: MAGI ; result: 0.8 µM
O=C(NCCc1ccccc1)Nc1nc2c(Cl)cccc2s1 ; method: cytopathic effect / XTT ; read-out: EC50 ; cell line: MT-4 ; result: >10 µg/mL
Cc1ccc(NC(=S)NC2CCN(Cc3ccccc3)CC2)cc1Cl ; strain: IIIB ; method: MTT ; read-out: EC50 ; cell line: MT-4 ; result: >11.6 µM
CC1CN(C(=O)c2ccccc2)CCN1C(=O)C(=O)c1ccc2cc(O)ccc2n1 ; method: luciferase / reporter gene ; read-out: EC50 ; cell line: HeLa ; result: <1 µM
CC(C)CN(CCC(O)CN1CSC[C@H]1C(=O)NC(C)(C)C)S(=O)(=O)c1ccccc1 ; strain: IIIB ; method: p24 ; read-out: EC90 ; cell line: CEM ; result: 1 µM
CCC(c1ccc(F)cc1)c1c(C)c(=O)[nH]c(=O)n1COCc1ccccc1 ; strain: IIIB ; method: MTT ; read-out: EC50 ; cell line: MT-4 ; result: >73.82 µM
CN1C(C)(c2cccc(Cl)c2)c2ccccc2S1(=O)=O ; method: p24 / RT activity ; read-out: EC50 ; result: 0.198 µM
O=C(O)C(=O)/C=C(\O)c1cc(Cc2ccc(F)cc2)cn(Cc2ccccc2F)c1=O ; read-out: EC50 ; cell line: MAGI ; result: 0.7 µM
Cc1cccc2sc(NC(=O)NCCc3ccccc3)nc12 ; method: cytopathic effect / XTT ; read-out: EC50 ; cell line: MT-4 ; result: >10 µg/mL
N=C1Sc2ccccc2C2=NCCCN12 ; strain: 92HT599 ; method: β-galactosidase ; read-out: EC50 ; cell line: PBMC ; result: 0.55 µM
CN1C(c2cccc(F)c2)c2ccccc2S1(=O)=O ; method: p24 / RT activity ; read-out: EC50 ; result: 0.173 µM

8 of the rows above, restated:

smiles	mutations	conditions	strain	method	read-out	cell line	result
N=C1Sc2ccccc2C2=NCCCN12			93BR021	MTS	EC50	PBMC	0.6 µM
C[C@@H]1CN(C(=O)c2ccccc2)CCN1C(=O)C(=O)c1cc2ccccc2cn1				luciferase / reporter gene	EC50	HeLa	<1 µM
CC(=O)N1C2CCC(C2)N2C(=O)c3c(O)c(=O)c(C(=O)NCc4ccc(F)cc4F)cn3CC12		0% human serum	NL4-3	GFP	EC50	MT-4	0.002 µM
CC(C)CN(CC(O)Cn1ccnc1C(=O)NC(C)(C)C)S(=O)(=O)c1ccccc1			IIIB	p24	EC90	CEM	1 µM
CC(C)CN(C[C@@H](O)CCN(CC1CCCC1)S(=O)(=O)c1ccc(O)cc1)S(=O)(=O)c1ccc(O)cc1			IIIB	p24	EC90	CEM	0.1 µM
O=C(NCCc1ccccc1)Nc1cncc(Cl)n1				cytopathic effect / XTT	EC50	MT-4	<1 µg/mL
Cc1ccccc1C(C)c1c(C)c(=O)[nH]c(=O)n1COCc1ccccc1	F227L + V106A		IIIB	MTT	EC50	MT-4	>343 µM
Cc1cc(C#N)cc(C)c1Oc1nc(Nc2ccc(C#N)cc2)nc(N)c1Br	N348I		p8.9	luciferase	EC50	HEK293T	2.75 nM